Results of unrelated studies side by side (data: NIAID ChemDB).

Shared fields: toxicity to cultured cells; cell line: MT-4; method: MTT; endpoint: CC50

CCn: concentration that lowers growth or viability of the cells by n%. Lines come from different laboratories, so protocols vary.

compound	value
Cc1cn([C@H]2C[C@H](N=[N+]=[N-])[C@@H](CO)O2)c(=O)[nH]c1=O	>7.5 µM
S=C(Nc1ccc(I)cc1)Nc1nc2ccccc2s1	9.5 µM
CC(NC(=S)NC(=O)CCCN1C(=O)c2ccccc2C1=O)C(=O)O	125 µM
CC(c1ccccc1)N1C(=O)CS/C1=N\c1nc2ccccc2s1	84 µM
CC(O)C(NC(=S)NC(=O)CCCN1C(=O)c2ccccc2C1=O)C(=O)O	28.54 µM
COc1ccc(CCNc2nc(NC(=O)Nc3ccc4ccccc4c3)nc(Oc3cc(=O)oc4ccccc34)n2)cc1OC	12.85 µg/mL
COC(=O)C(CC(C)C)NC(=O)CCCN1C(=O)c2ccccc2C1=O	10.89 µM
COc1ccc(CCN2C(=O)/C(=C\c3cccc(Br)c3)N(CCc3ccc(OC)c(OC)c3)C2=S)cc1OC	108 µg/mL
COc1ccccc1NC(=S)Nc1nc(NCCc2ccc(OC)c(OC)c2)nc(Oc2cc(=O)oc3ccccc23)n1	19.63 µg/mL
CCc1c(Cc2cc(C)cc(C)c2)n(COCC#Cc2ccc(NC(=O)CBr)cc2)c(=O)[nH]c1=O	39 µM
CCOC(=O)CNc1nc(NC(=O)Nc2ccccc2C)nc(Oc2cc(=O)oc3ccccc23)n1	75.53 µg/mL
CCc1c(Cc2ccccc2C)n(COC/C(Br)=C(\Br)c2ccccc2)c(=O)[nH]c1=O	26 µM
O=C1CS/C(=N\c2nc3ccccc3s2)N1c1ccccc1Br	9 µM
CCc1c(Cc2cc(C)cc(C)c2)n(COCC#Cc2ccccc2[N+](=O)[O-])c(=O)[nH]c1=O	10 µM
CCCCCCNC(=O)P(=O)(O)OC[C@H]1O[C@@H](n2cc(C)c(=O)[nH]c2=O)C[C@@H]1N=[N+]=[N-]	1500 µM
C#CCOC(=O)c1cccn1S(=O)(=O)c1cc(Cl)ccc1[N+](=O)[O-]	4.9 µM
CCOC(=O)CNc1nc(NC(=O)Nc2ccc(F)cc2)nc(Oc2cc(=O)oc3ccccc23)n1	>125 µg/mL
NC(N)=NCCCC(NC(=S)NC(=O)CCCN1C(=O)c2ccccc2C1=O)C(=O)O	12.6 µM
CCc1c(Cc2cc(C)cc(C)c2)n(COCC#Cc2ccccc2)c(=O)[nH]c1=O	30 µM
CCC(C)OC(=O)c1cccn1S(=O)(=O)c1cc(Cl)ccc1[N+](=O)[O-]	32.5 µM
COc1ccc(CCNc2nc(NC(=S)Nc3cccc(C)c3)nc(Oc3cc(=O)oc4ccccc34)n2)cc1OC	61.2 µg/mL
C=CCn1cc(COCn2c(Cc3cc(C)cc(C)c3)c(CC)c(=O)[nH]c2=O)nn1	>100 µM
CCOC(=O)CNc1nc(Nc2ccc(C)cc2)nc(Oc2cc(=O)oc3ccccc23)n1	45.53 µg/mL
Nc1ccc(Cl)cc1S(=O)(=O)n1cccc1C(=O)Oc1ccccc1	24 µM
COC(=O)C(Cc1c[nH]c2ccccc12)NC(=O)CCCN1C(=O)c2ccccc2C1=O	29.61 µM
CCOC(=O)CNc1nc(Nc2ccccc2OC)nc(Oc2cc(=O)oc3ccccc23)n1	72.3 µg/mL
COc1ccc(CCN2C(=O)/C(=C\c3cccc(Oc4ccccc4)c3)N(CCc3ccc(OC)c(OC)c3)C2=S)cc1OC	24.9 µg/mL
C=CCNc1nn2c(=O)c3ccccc3nc2s1	>97.1 µg/mL
CCc1c(Cc2cc(C)cc(C)c2)n(COCC#Cc2cc(C(F)(F)F)cc(C(F)(F)F)c2)c(=O)[nH]c1=O	70 µM
CCOC(=O)c1cccn1S(=O)(=O)c1cc(Cl)ccc1Cl	>200 µM
CCOc1ccc(NC(=S)Nc2nc(NCCc3ccc(OC)c(OC)c3)nc(Oc3cc(=O)oc4ccccc34)n2)cc1	66.05 µg/mL
COC(=O)C(CS)NC(=O)CCCN1C(=O)c2ccccc2C1=O	60.33 µM
FC(F)(F)c1cccc(NC(=S)Nc2nc3ccccc3s2)c1	5.8 µM
Cc1ccnc2c1NC(=O)c1cccnc1N2C1CC1	>15 µM
CCOC(=O)CNc1nc(Nc2ccc(F)cc2)nc(Oc2cc(=O)oc3ccccc23)n1	67.6 µg/mL
COc1ccc(Nc2nn3c(=O)c4ccccc4nc3s2)cc1	>97.4 µg/mL
CCc1c(Cc2cc(C)cc(C)c2)n(COCC#Cc2ccc(NC(=O)C(F)(F)F)cc2)c(=O)[nH]c1=O	36 µM
COc1ccc(/C=C2\C(=O)N(CCc3ccc(OC)c(OC)c3)C(=S)N2CCc2ccc(OC)c(OC)c2)cc1	82.3 µg/mL
Cc1cn([C@H]2C[C@H](N=[N+]=[N-])[C@@H](COP(=O)(O)CCl)O2)c(=O)[nH]c1=O	>2600 µM
CC(NC(=S)Nc1nc2ccccc2s1)c1ccccc1	38 µM
CCc1c(Cc2cc(C)cc(C)c2)n(COCC#Cc2cccc(C#N)c2)c(=O)[nH]c1=O	39 µM
COc1ccc(CCN2C(=O)/C(=C\c3ccccc3)N(CCc3ccc(OC)c(OC)c3)C2=S)cc1OC	62.95 µg/mL
CCc1c(Cc2cc(C)cc(C)c2)n(COC/C(Br)=C(\Br)c2ccccc2)c(=O)[nH]c1=O	36 µM
Cc1cn([C@H]2C[C@H](N=[N+]=[N-])[C@@H](COP(=O)(O)C(=O)NCCO)O2)c(=O)[nH]c1=O	2400 µM

The last 4 rows once more:

{"compound": "CCc1c(Cc2cc(C)cc(C)c2)n(COCC#Cc2cccc(C#N)c2)c(=O)[nH]c1=O", "value": "39 µM"}
{"compound": "COc1ccc(CCN2C(=O)/C(=C\\c3ccccc3)N(CCc3ccc(OC)c(OC)c3)C2=S)cc1OC", "value": "62.95 µg/mL"}
{"compound": "CCc1c(Cc2cc(C)cc(C)c2)n(COC/C(Br)=C(\\Br)c2ccccc2)c(=O)[nH]c1=O", "value": "36 µM"}
{"compound": "Cc1cn([C@H]2C[C@H](N=[N+]=[N-])[C@@H](COP(=O)(O)C(=O)NCCO)O2)c(=O)[nH]c1=O", "value": "2400 µM"}